# Data: patent publication US9907812B2, “Conjugate-based antifungal and antibacterial prodrugs” (VYOME BIOSCIENCES PVT. LTD., priority 2011, dated 2018)
# System: Malassezia furfur (MTCC 1374)
# Type: cell-based
row,Substance,MIC [µM]
1,Ketoconazole-1-ethylene-laureate [KEL],1.88 to 3.7
2,Ketoconazole-1-ethylene-myristate [KEM],1.88 to 3.7
3,Ketoconazole-1-ethylene-oleate [KEO],1.88 to 3.7
4,Ketoconazole-1-ethylene-oleylcarbonate [KCO],1.88
5,Ketoconazole-1-ethylene-palmitate [KEP],3.7 to 7.5
6,Ketoconazole-1-ethylene-undecylenate [KEU],1.88 to 7.5
7,Ketoconazole-ethylene-caprylate [KEC],1.88
8,Ketoconazole-oleyl-triethyleneglycerylcarbonate,7.5 to 15
9,[Di-(ketoconazole-1-ethylene)]-triethyleneglyceryl-dicarbonate,0.94 to 3.7
